# In-gel DMS probing of monomeric and dimeric HIV-1 RNA

The measurements come from Ye et al. 2022 (doi:10.1038/s41594-022-00746-2).

The 5' region of HIV-1 NL4-3 RNA (positions 1-437):
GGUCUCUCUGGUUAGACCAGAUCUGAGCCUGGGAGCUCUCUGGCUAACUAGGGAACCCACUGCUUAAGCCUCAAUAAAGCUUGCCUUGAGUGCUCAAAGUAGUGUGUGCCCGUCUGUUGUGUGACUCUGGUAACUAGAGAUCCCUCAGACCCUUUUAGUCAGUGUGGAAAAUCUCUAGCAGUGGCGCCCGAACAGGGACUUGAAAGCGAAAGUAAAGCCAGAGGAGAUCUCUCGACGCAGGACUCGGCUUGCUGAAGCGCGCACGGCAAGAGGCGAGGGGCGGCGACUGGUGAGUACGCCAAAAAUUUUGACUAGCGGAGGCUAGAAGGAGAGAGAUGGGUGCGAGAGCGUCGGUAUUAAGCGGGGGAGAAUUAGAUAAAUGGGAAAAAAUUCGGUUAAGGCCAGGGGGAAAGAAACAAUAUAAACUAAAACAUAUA

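Mutant RNA libraries with 1G, 2G or 3G starts, with or without cap, were folded at 37 °C for 30 min. Monomer and dimer bands were cut from native gels after folding in high salt (300 mM KCl, 5 mM MgCl2) or low salt (40 mM KCl, 0.1 mM MgCl2). Each band was probed in the gel with DMS (170 mM, 15 min, 37 °C), with ethanol as control, and sequenced.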

Scale: normalised reactivity, A and C only; low values point to paired or protected bases, higher values to unpaired ones.
One numbering serves 1G, 2G and 3G.
A position is written with its base.

| # | position | domain | 1G uncapped high-salt dimer | 3G uncapped low-salt dimer | 1G uncapped high-salt monomer | 3G capped low-salt monomer |
|---|---|---|---|---|---|---|
| 1 | A19 | TAR | 0.04 | 0.05 | 0.04 | 0.02 |
| 2 | C28 | TAR | 0.06 | 0.05 | 0.04 | 0.02 |
| 3 | A55 | TAR | 0.45 | 0.20 | 0.53 | 0.15 |
| 4 | C63 | PolyA | 0.04 | 0.53 | 0.13 | 0.67 |
| 5 | A74 | PolyA | 0.63 | 0.85 | 0.79 | 0.97 |
| 6 | A76 | PolyA | 0.26 | 0.26 | 0.29 | 0.23 |
| 7 | C95 | PolyA | 0.55 | 0.43 | 0.58 | 0.47 |
| 8 | A97 | PolyA | 0.32 | 0.60 | 0.45 | 0.67 |
| 9 | C114 | none | 0.26 | 0.20 | 0.29 | 0.16 |
| 10 | C125 | PAS | 0.09 | 0.08 | 0.10 | 0.03 |
| 11 | A140 | PBS | 0.33 | 0.39 | 0.41 | 0.39 |
| 12 | C142 | PBS | 0.07 | 0.06 | 0.08 | 0.08 |
| 13 | A147 | PBS | 0.45 | 0.38 | 0.43 | 0.41 |
| 14 | C150 | PBS | 0.04 | 0.05 | 0.07 | 0.05 |
| 15 | A157 | PBS | 0.97 | 0.89 | 0.95 | 0.89 |
| 16 | A168 | PBS | 0.44 | 0.50 | 0.47 | 0.48 |
| 17 | C179 | PBS | 0.82 | 1.00 | 0.81 | 0.99 |
| 18 | A191 | PBS | 0.40 | 0.38 | 0.41 | 0.38 |
| 19 | A220 | antiPAS | 0.21 | 0.18 | 0.34 | 0.24 |
| 20 | C243 | SL1 | 0.04 | 0.05 | 0.07 | 0.05 |
| 21 | A255 | SL1 | 0.50 | 0.39 | 0.48 | 0.39 |
| 22 | A271 | SL1 | 0.55 | 0.47 | 0.54 | 0.44 |
| 23 | A286 | SL2 | 0.67 | 0.54 | 0.56 | 0.48 |
| 24 | C297 | SL2 | 0.12 | 0.11 | 0.15 | 0.18 |
| 25 | C300 | none | 0.06 | 0.05 | 0.04 | 0.02 |
| 26 | A303 | none | 0.08 | 0.09 | 0.08 | 0.06 |
| 27 | A304 | none | 0.18 | 0.14 | 0.17 | 0.11 |
| 28 | A347 | none | 0.29 | 0.12 | 0.28 | 0.16 |
| 29 | C352 | none | 0.42 | 0.39 | 0.42 | 0.37 |
| 30 | A356 | none | 1.00 | 0.95 | 1.08 | 0.94 |
| 31 | A359 | none | 0.58 | 0.42 | 0.40 | 0.44 |
| 32 | C362 | none | 0.33 | 0.32 | 0.28 | 0.48 |
| 33 | A370 | none | 0.50 | 0.48 | 0.50 | 0.52 |
| 34 | A386 | none | 1.29 | 1.63 | 1.36 | 1.41 |
| 35 | A423 | none | 0.46 | 0.44 | 0.39 | 0.38 |
| 36 | A425 | none | 0.55 | 0.50 | 0.49 | 0.49 |
| 37 | C426 | none | 0.79 | 0.45 | 0.73 | 0.77 |

Extract of 5 entries:

position,domain,1G uncapped high-salt dimer,3G uncapped low-salt dimer,1G uncapped high-salt monomer,3G capped low-salt monomer
A76,PolyA,0.26,0.26,0.29,0.23
A168,PBS,0.44,0.50,0.47,0.48
A147,PBS,0.45,0.38,0.43,0.41
C243,SL1,0.04,0.05,0.07,0.05
A191,PBS,0.40,0.38,0.41,0.38